Pooled drug test results. Numbers come from NIAID ChemDB, via PubChem.

Shared fields: whole-cell or culture tests; species: Hepatitis B virus; cells: HepAD38; method: PCR; measure: EC50

Neighbouring rows are from separate reports.

smiles	strain or isolate	result
Cc1cc(NC(=O)c2c3c(c(C)n2C)C(=O)NC(C)CC3)ccc1F	-	<0.5 µM
Cn1nc2cc(NS(=O)(=O)c3cnn(-c4cccc(F)c4F)c3)ccc2c1C(=O)Nc1ccc(F)c(Cl)c1	-	<100 µM
Cn1cc2c(c1C(=O)Nc1ccc(F)c(Cl)c1)OC[C@@]1(CCN(C(=O)C(=O)NC(C)(C)C(F)(F)F)C1)NS2(=O)=O	Genotype D	<0.5 µM
Cc1cc(NC(=O)c2c3c(c(C)n2C)C(=O)NC(C)(C)CC3)cnc1F	-	>1 µM
Cn1nc2cc(S(=O)(=O)NCC3CNC3)ccc2c1C(=O)Nc1ccc(F)c(Cl)c1	-	>1000 µM
Cc1cc(NC(=O)c2c3c(c(Cl)n2C)S(=O)(=O)N[C@H]2CN(C(=O)C(=O)N[C@H](C)C(F)(F)F)C[C@H]2CO3)ccc1F	-	<0.5 µM
C[C@H](NC(=O)C(=O)N1CC2(COc3c(cn(C)c3C(=O)Nc3ccc(F)c(Cl)c3)S(=O)(=O)N2)C1)C(F)(F)F	Genotype D	<0.5 µM
Cn1cc2c(c1C(=O)Nc1cc(F)c(F)c(F)c1)OCC1CN(C(=O)C(N)=O)CC1NS2(=O)=O	-	<0.5 µM
Cc1cc(F)cc(NC(=O)c2c3c(c(C)n2C)C(=O)NC(C)(C)CC3)c1	-	<0.05 µM
Cn1cc2c(c1C(=O)Nc1ccc(F)c(C(F)F)c1)OCC1(CCN(C(=O)C(=O)NC(C)(C)C(F)(F)F)CC1)NS2(=O)=O	Genotype D	<0.5 µM
Cc1cc(NC(=O)c2c3c(cn2C)S(=O)(=O)N[C@H]2CN(C(=O)C(=O)NC4CCC4)C[C@H]2CO3)ccc1F	-	<0.5 µM
Cc1c2c(c(C(=O)Nc3cc(F)c(F)c(F)c3)n1C)CCC(C)(C)NC2=O	-	>1 µM
Cn1nc2cc(NS(=O)(=O)c3cnn(CC(=O)O)c3)ccc2c1C(=O)Nc1ccc(F)c(Cl)c1	-	>1000 µM
Cn1cc2c(c1C(=O)Nc1ccc(F)c(C(F)F)c1)OC[C@@]1(CCN(C(=O)C(=O)NC(C)(C)C(F)(F)F)C1)NS2(=O)=O	Genotype D	<0.5 µM
Cc1cc(NC(=O)c2c3c(cn2C)S(=O)(=O)N[C@H]2CN(C(=O)C(=O)N[C@H](C)C(F)(F)F)C[C@H]2CS3)ccc1F	-	<0.5 µM
Cn1cc2c(c1C(=O)Nc1ccc(F)c(Cl)c1)OC[C@@]1(CCN(C(=O)C(=O)NCC(F)(F)F)C1)NS2(=O)=O	Genotype D	<0.5 µM
Cc1nn(C)c(C)c1S(=O)(=O)Nc1ccc2c(C(=O)Nc3ccc(F)c(Cl)c3)n(C)nc2c1	-	100–1000 µM
Cc1cc(NC(=O)c2c3c(cn2C)S(=O)(=O)NC2CCN(C(=O)C(=O)N[C@H](C)C(F)(F)F)CC2CO3)ccc1F	-	<0.5 µM

Repeating the first 2 entries:

{"smiles": "Cc1cc(NC(=O)c2c3c(c(C)n2C)C(=O)NC(C)CC3)ccc1F", "result": "<0.5 µM"}
{"smiles": "Cn1nc2cc(NS(=O)(=O)c3cnn(-c4cccc(F)c4F)c3)ccc2c1C(=O)Nc1ccc(F)c(Cl)c1", "result": "<100 µM"}

An empty or dashed field is not shown. Two numbers with a dash give a range or band. ECn: concentration that inhibits the pathogen or its effect by n%.